Compound potency records, mixed from different reports. Data source: NIAID ChemDB in PubChem.

Common to all: growth or infection tests; agent: Herpes simplex virus 1; cell line: VERO; read-out: EC50

Rows are shuffled and stem from different studies. An empty or dashed field is not shown. ECn is the concentration giving n% inhibition of infection, replication or growth.

| SMILES | strain or isolate | read by | result |
|---|---|---|---|
| N#Cc1c(N)c(-c2ccccc2)n(COCCO)c1-c1ccccc1 | - | plaque count | >300 µM |
| CCCCCCCCCCCCCCCC(=O)NC(C)(C)C(=O)N1C[C@@H](O)C[C@H]1C(=O)N[C@@H](CC(C)C)C(=O)N[C@H](C(=O)N[C@@H](CCC(N)=O)C(=O)N[C@@H](CC(C)C)C(=O)OC)C(C)C | - | ELISA | 1.7 µM |
| COc1nc(N)nc2c1ncn2/C=C1/C[C@H]1CO | - | plaque count | >50 µM |
| CCOC(=O)c1c([N+](=O)[O-])c(-c2ccccc2)n(COCCOC(C)=O)c1-c1ccccc1 | - | plaque count | >96 µM |
| CC[C@@H](C(C)C)[C@@H](O)[C@H](O)[C@@H](C)[C@H]1CC[C@H]2[C@@H]3CC(=O)[C@@]4(O)C[C@H](O)[C@H](O)C[C@]4(C)[C@H]3CC[C@]12C | B2006 (TK-) | plaque count | >40.4 µM |
| Nc1nc(=O)n([C@@H]2CC[C@H](CO)O2)cc1F | WT-34 | plaque count | 5.6 µM |
| CC(C1=NNC(=NCc2ccccc2)SC1)N1C(=O)c2ccccc2C1=O | VR733 | cytopathic effect | 77.04 µg/mL |
| Nc1nc2c(ncn2COCCOP(=O)(O)O)c(=O)[nH]1 | - | cytopathic effect | 0.16 µg/mL |
| CCN(CC)CCCOc1c2ccoc2cc2oc(=O)ccc12 | Clinical isolate | plaque count | 3.5 µg/mL |
| C=Cc1cn(OC(CO)CO)c(=O)[nH]c1=O | KOSSB (TK-) | plaque count | >50 µg/mL |
| CCOC(=O)c1c(Cl)c(-c2ccccc2)n(COCCO)c1C | - | plaque count | 103 µM |
| Nc1nc2c(ncn2CC[C@H](O)CO)c(=O)[nH]1 | 7935-72 | plaque count | 8 µM |
| CC[C@@H](C(C)C)[C@H](O)[C@@H](O)[C@@H](C)[C@H]1CC[C@H]2[C@@H]3CC(=O)[C@@]4(O)C[C@@H](OC(C)=O)CC[C@]4(C)[C@H]3CC[C@]12C | B2006 (TK-) | plaque count | 173.5 µM |
| CCCCCCCCCCCCCC(=O)NC(C)(C)C(=O)N1CCCC1C(=O)N[C@@H](CC(C)C)C(=O)N[C@H](C(=O)N[C@@H](CCC(N)=O)C(=O)N[C@H](CO)CC(C)C)C(C)C | - | cytopathic effect | 2.2 µM |
| CC(C1=NNC(=NC2CCCCC2)SC1)N1C(=O)c2ccccc2C1=O | VR733 | cytopathic effect | >111 µg/mL |
| CC[C@@H](C(C)C)[C@@H](O)[C@H](O)[C@@H](C)[C@H]1CC[C@H]2[C@@H]3CC(=O)[C@H]4C[C@@H](Br)CC[C@]4(C)[C@H]3CC[C@]12C | F | plaque count | 53.3 µM |
| COC(=O)[C@H](C)NP(=O)(OC[C@H]1C/C1=C/n1cnc2c(OC)nc(N)nc21)Oc1ccccc1 | - | plaque count | 0.6 µM |
| Nc1nc2c(ncn2COCCO)c(=O)[nH]1 | C42 | plaque count | 0.3 µM |
| CC/C=C/C/C=C/C/C=C/CCCCCCCC(=O)NC(C)(C)C(=O)N1C[C@@H](O)C[C@H]1C(=O)N[C@@H](CC(C)C)C(=O)N[C@H](C(=O)N[C@@H](CCC(N)=O)C(=O)N[C@@H](CC(C)C)C(=O)OC)C(C)C | - | ELISA | 8.5 µM |
| Nc1ncnc2c1ncn2[C@H]1C[C@]12C[C@H]2CO | - | - | >50 µM |
| Nc1nc2c(ncn2COCCOP(=O)(O)OP(=O)(O)O)c(=O)[nH]1 | - | cytopathic effect | 0.25 µg/mL |
| CC[C@@H](C(C)C)[C@H](O)[C@@H](O)[C@@H](C)[C@H]1CC[C@H]2[C@@H]3CC(=O)[C@H]4C[C@@H](Br)CC[C@]4(C)[C@H]3CC[C@]12C | B2006 (TK-) | plaque count | 42.6 µM |
| COC(=O)[C@H](C)NP(=O)(OCC1C/C1=C/n1cnc2c(=O)[nH]c(N)nc21)Oc1ccccc1 | - | plaque count | >100 µM |
| O=c1[nH]c(=O)n([C@@H]2O[C@H](CO)[C@@H](O)[C@@H]2O)cc1/C=C/Br | WT-34 | plaque count | 0.17 µM |
| CCCCCCCCCCCCCC(=O)NC(C)(C)C(=O)N1C[C@@H](O)CC1C(=O)N[C@@H](CC(C)C)C(=O)N[C@@H](C)C(=O)N[C@@H](CCC(N)=O)C(=O)N[C@H](CO)CC(C)C | - | cytopathic effect | 3.5 µM |
| O=C(O)c1c([N+](=O)[O-])c(-c2ccccc2)n(COCCO)c1-c1ccccc1 | - | plaque count | >300 µM |
| CC(C1=NNC(=Nc2ccccc2)SC1)N1C(=O)c2cccc([N+](=O)[O-])c2C1=O | VR733 | cytopathic effect | 111 µg/mL |
| CCCCCCCCCCCCCCCCCC(=O)NC(C)(C)C(=O)N1C[C@@H](O)C[C@H]1C(=O)N[C@@H](CC(C)C)C(=O)N[C@H](C(=O)N[C@@H](CCC(N)=O)C(=O)N[C@@H](CC(C)C)C(=O)OC)C(C)C | - | ELISA | 1.6 µM |
| Nc1nc2c(ncn2CC[C@@H](O)CO)c(=O)[nH]1 | C42 (acyclovir-resistant) | plaque count | 230 µM |
| Nc1nc2c(ncn2COC(CO)COP(=O)(O)OP(=O)(O)OP(=O)(O)O)c(=O)[nH]1 | - | cytopathic effect | 0.3 µg/mL |
| CCCCCCCCCCCCCC(=O)NC(C)(C)C(=O)N1C[C@@H](O)C[C@H]1C(=O)N[C@@H](CC(C)C)C(=O)N[C@H](C(=O)N[C@@H](CCC(N)=O)C(=O)N[C@@H](CC(C)C)C(=O)OC)C(C)C | - | ELISA | 2.3 µM |
| OCCOCn1c(-c2ccccc2)c(Br)c(-c2ccccc2)c1-c1ccccc1 | - | plaque count | >15 µM |
| CC(C1=NN=C(N(Cc2ccccc2)c2ccccc2)SC1)N1C(=O)c2ccccc2C1=O | VR733 | cytopathic effect | 47.72 µg/mL |
| COc1cccc2c1C(=O)c1c(O)c3c(c(O)c1C2=O)C[C@@](O)(C(=O)CO)C[C@@H]3O[C@H]1C[C@H](N)[C@H](O)[C@H](C)O1 | - | virus yield | >1 µM |
| CC[C@@H](C(C)C)[C@@H](O)[C@H](O)[C@@H](C)[C@H]1CC[C@H]2[C@@H]3CC(=O)[C@@]4(O)C[C@@H](Br)CC[C@]4(C)[C@H]3CC[C@]12C | B2006 (TK-) | plaque count | 12.9 µM |
| O=C1c2ccccc2C(=O)N1CCCC1=NNC(=Nc2ccccc2)SC1 | VR733 | cytopathic effect | 25.68 µg/mL |
| [N-]=[N+]=Nc1c(-c2ccccc2)c(-c2ccccc2)n(COCCO)c1-c1ccccc1 | - | plaque count | >65 µM |
| CC[C@@H](C(C)C)[C@H](O)[C@@H](O)[C@@H](C)[C@H]1CC[C@H]2[C@@H]3CC(=O)[C@@]4(O)C[C@H](O)[C@H](O)C[C@]4(C)[C@H]3CC[C@]12C | B2006 (TK-) | plaque count | 91.5 µM |

2 of the rows above, restated:

SMILES,strain or isolate,read by,result
CC(C1=NNC(=NCc2ccccc2)SC1)N1C(=O)c2ccccc2C1=O,VR733,cytopathic effect,77.04 µg/mL
COc1nc(N)nc2c1ncn2/C=C1/C[C@H]1CO,-,plaque count,>50 µM